Measured values from several laboratories, pooled; numbers as filed in NIAID ChemDB.

Shared fields: cytotoxicity tests; cell line: HepG2.2.15; measure: CC50

An empty or dashed field is not shown.

compound	method	value
CCOC(=O)C1=C(CN2CC(F)(F)[C@@H]3[C@H]2CON3C[C@@H](F)C(C)(C)C(=O)O)NC(c2nccs2)=N[C@H]1c1cccc(F)c1C	WST / absorbance	50 µM
CCOC(=O)CCCOC(=O)[C@@]1(C)CC[C@]2(C)CC[C@]3(C)C(=CC[C@@H]4[C@@]5(C)CC[C@H](OC(=O)c6cc(=O)c7ccccc7o6)C(C)(C)[C@@H]5CC[C@]43C)[C@@H]2C1	-	>1180 µM
CN(C)S(=O)(=O)NCC(=O)Nc1ccc(Cl)nc1Cl	MTS	142 µM
C=C(C)[C@H](O)CC[C@]1(C)CC[C@]2(C)[C@H]3CC[C@@]4(C)[C@@H](CCC(=O)[C@@H]4C)[C@]3(C)CC[C@@]2(C)C1	sulforhodamine	172.4 µM
CCCCOC(=O)[C@@]1(C)CC[C@]2(C)CC[C@]3(C)C(=CC(=O)[C@@H]4[C@@]5(C)CC[C@H](O)C(C)(C)[C@@H]5CC[C@]43C)[C@@H]2C1	-	>986 µM
CCOC(=O)C1=C(CN2CC(F)(F)[C@H]3[C@@H]2CCN3C[C@H](O)C(C)(C)C(=O)O)NC(c2nccs2)=N[C@@H]1c1cccc(F)c1F	WST / absorbance	>25 µM
CCOC(=O)c1c(CSc2ccc(Br)cc2)nc2c(O)c(CN3CCN(C)CC3)c(Br)cn12	MTT	31 µM
COCC(=O)O[C@@H](C[C@@H](C)C1=C2C[C@H](OC(=O)COC)[C@H]3[C@@]4(C)CCC(=O)C(C)(C)[C@@H]4CC[C@]3(C)[C@@]2(C)CC1)[C@@H](OC(=O)COC)C(C)(C)O	-	400 µM
COC(=O)C1=C(CN2CC(F)(F)[C@@H]3[C@H]2CON3C[C@@](C)(O)C(C)(C)C(=O)O)NC(c2nccs2)=N[C@H]1c1ccc(F)c(F)c1C	WST / absorbance	>3.13 µM
CCOC(=O)c1c(CSc2ccc(F)cc2)nc2c(O)c(CN3CCOCC3)c(Br)cn12	MTT	12.6 µM
COC(=O)C1=C(CN2CC(F)(F)[C@H]3[C@@H]2CCN3C[C@@H](F)C(C)(C)C(=O)O)NC(c2nc(C)cs2)=N[C@H]1c1cccc(F)c1Cl	WST / absorbance	30 µM
C[C@H](C[C@H](OC(=O)C1CCCC1)[C@@H](OC(=O)C1CCCC1)C(C)(C)O)C1=C2C[C@H](OC(=O)C3CCCC3)[C@H]3[C@@]4(C)CCC(=O)C(C)(C)[C@@H]4CC[C@]3(C)[C@@]2(C)CC1	-	>1100 µM
CCOC(=O)c1c(CSc2ccc(C)cc2)nc2c(O)c(CN3CCOCC3)c(Br)cn12	MTT	12.1 µM
O=C(CNC(=O)c1ccc(F)cc1)Nc1ccc(Cl)nc1Cl	MTS	144 µM
C=C(C)[C@H](OC(=O)COC(C)=O)[C@H](C[C@@H](C)[C@]12CC[C@@]3(C)[C@@]1(C[C@H](OC(=O)COC(C)=O)[C@H]1[C@@]4(C)CCC(=O)C(C)(C)[C@@H]4CC[C@@]13C)O2)OC(=O)COC(C)=O	-	>1600 µM
CCOC(=O)C1=C(CN2CC(F)(F)[C@H]3[C@@H]2CCN3C[C@](C)(F)C(=O)O)NC(c2nc(C)cs2)=N[C@H]1c1cccc(F)c1C	WST / absorbance	23.5 µM
COCC(=O)O[C@@H](C[C@@H](C)C1=C2C[C@H](OC(=O)COC)[C@H]3[C@@]4(C)CCC(=O)C(C)(C)[C@@H]4CC[C@]3(C)[C@@]2(C)CC1)[C@@H](OC(=O)COC)C(C)(C)OC(=O)COC	-	>2500 µM
O=C(CNC(=O)Nc1cccc(F)c1)Nc1ccc(Cl)nc1Cl	MTS	259 µM
COCC(=O)O[C@@H](C[C@@H](C)[C@]12CC[C@@]3(C)[C@@]1(C[C@H](OC(=O)COC)[C@H]1[C@@]4(C)CCC(=O)C(C)(C)[C@@H]4CC[C@@]13C)O2)[C@@H](OC(=O)COC)C(C)(C)O	-	1100 µM
CCOC(=O)COC(=O)[C@@]1(C)CC[C@]2(C)CC[C@]3(C)C(=CC(=O)[C@@H]4[C@@]5(C)CC[C@H](O)C(C)(C)[C@@H]5CC[C@]43C)[C@@H]2C1	-	>1200 µM

A second listing of 3 rows from above:

{"compound": "C[C@H](C[C@H](OC(=O)C1CCCC1)[C@@H](OC(=O)C1CCCC1)C(C)(C)O)C1=C2C[C@H](OC(=O)C3CCCC3)[C@H]3[C@@]4(C)CCC(=O)C(C)(C)[C@@H]4CC[C@]3(C)[C@@]2(C)CC1", "value": ">1100 µM"}
{"compound": "CCOC(=O)C1=C(CN2CC(F)(F)[C@@H]3[C@H]2CON3C[C@@H](F)C(C)(C)C(=O)O)NC(c2nccs2)=N[C@H]1c1cccc(F)c1C", "method": "WST / absorbance", "value": "50 µM"}
{"compound": "C=C(C)[C@H](OC(=O)COC(C)=O)[C@H](C[C@@H](C)[C@]12CC[C@@]3(C)[C@@]1(C[C@H](OC(=O)COC(C)=O)[C@H]1[C@@]4(C)CCC(=O)C(C)(C)[C@@H]4CC[C@@]13C)O2)OC(=O)COC(C)=O", "value": ">1600 µM"}

Conditions beyond the fields shown may differ between rows. CCn: concentration that lowers growth or viability of the cells by n%.